Experimental data as given in publication PMC13347698 (Analytical Chemistry, 2026).

Target: wild-type 3CL^pro (Severe acute respiratory syndrome coronavirus 2, UniProt P0DTD1)
Assay type: binding, SARS-CoV-2

SMILES: O=C(Nc1ccc(N(Cc2ccsc2)C(=O)Cn2nnc3ccccc32)cc1)C1CC1 [ML300]
- ΔG: -7.0 kcal mol -1
- ΔH: -9.6 ± 0.2 kcal mol -1
- ΔS: -8.6 cal mol -1 K-1
